Where two headings read alike, the source gives them in different places.
B1: Complement factor H (protein, UniProt P06909 19-1234, looked up)
Complement factor H: EDCKGPPPRENSEILSGSWSEQLYPEGTQATYKCRPGYRTLGTIVKVCKNGKWVASNPSRICRKKPCGHPGDTPFGSFRLAVGSQFEFGAKVVYTCDDGYQLLGEIDYRECGADGWINDIPLCEVVKCLPVTELENGRIVSGAAETDQEYYFGQVVRFECNSGFKIEGHKEIHCSENGLWSNEKPRCVEILCTPPRVENGDGINVKPVYKENERYHYKCKHGYVPKERGDAVCTGSGWSSQPFCEEKRCSPPYILNGIYTPHRIIHRSDDEIRYECNYGFYPVTGSTVSKCTPTGWIPVPRCTLKPCEFPQFKYGRLYYEESLRPNFPVSIGNKYSYKCDNGFSPPSGYSWDYLRCTAQGWEPEVPCVRKCVFHYVENGDSAYWEKVYVQGQSLKVQCYNGYSLQNGQDTMTCTENGWSPPPKCIRIKTCSASDIHIDNGFLSESSSIYALNRETSYRCKQGYVTNTGEISGSITCLQNGWSPQPSCIKSCDMPVFENSITKNTRTWFKLNDKLDYECLVGFENEYKHTKGSITCTYYGWSDTPSCYERECSVPTLDRKLVVSPRKEKYRVGDLLEFSCHSGHRVGPDSVQCYHFGWSPGFPTCKGQVASCAPPLEILNGEINGAKKVEYSHGEVVKYDCKPRFLLKGPNKIQCVDGNWTTLPVCIEEERTCGDIPELEHGSAKCSVPPYHHGDSVEFICEENFTMIGHGSVSCISGKWTQLPKCVATDQLEKCRVLKSTGIEAIKPKLTEFTHNSTMDYKCRDKQEYERSICINGKWDPEPNCTSKTSCPPPPQIPNTQVIETTVKYLDGEKLSVLCQDNYLTQDSEEMVCKDGRWQSLPRCIEKIPCSQPPTIEHGSINLPRSSEERRDSIESSSHEHGTTFSYVCDDGFRIPEENRITCYMGKWSTPPRCVGLPCGPPPSIPLGTVSLELESYQHGEEVTYHCSTGFGIDGPAFIICEGGKWSDPPKCIKTDCDVLPTVKNAIIRGKSKKSYRTGEQVTFRCQSPYQMNGSDTVTCVNSRWIGQPVCKDNSCVDPPHVPNATIVTRTKNKYLHGDRVRYECNKPLELFGQVEVMCENGIWTEKPKCRDSTGKCGPPPPIDNGDITSLSLPVYEPLSSVEYQCQKYYLLKGKKTITCRNGKWSEPPTCLHACVIPENIMESHNIILKWRHTEKIYSHSGEDIEFGCKYGYYKARDSPPFRTKCINGTINYPTCV
B2: Mannan-binding lectin serine protease 1 (protein, UniProt P98064 25-704, looked up)
Mannan-binding lectin serine …: HTVELNEMFGQIQSPGYPDSYPSDSEVTWNITVPEGFRIKLYFMHFNLESSYLCEYDYVKVETEDQVLATFCGRETTDTEQTPGQEVVLSPGTFMSVTFRSDFSNEERFTGFDAHYMAVDVDECKEREDEELSCDHYCHNYIGGYYCSCRFGYILHTDNRTCRVECSGNLFTQRTGTITSPDYPNPYPKSSECSYTIDLEEGFMVSLQFEDIFDIEDHPEVPCPYDYIKIKAGSKVWGPFCGEKSPEPISTQTHSVQILFRSDNSGENRGWRLSYRAAGNECPKLQPPVYGKIEPSQAVYSFKDQVLVSCDTGYKVLKDNEVMDTFQIECLKDGAWSNKIPTCKIVDCGAPAGLKHGLVTFSTRNNLTTYKSEIRYSCQQPYYKMLHNTTGVYTCSAHGTWTNEVLKRSLPTCLPVCGVPKFSRKQISRIFNGRPAQKGTMPWIAMLSHLNGQPFCGGSLLGSNWVLTAAHCLHQSLDPEEPTLHSSYLLSPSDFKIIMGKHWRRRSDEDEQHLHVKRTTLHPLYNPSTFENDLGLVELSESPRLNDFVMPVCLPEQPSTEGTMVIVSGWGKQFLQRFPENLMEIEIPIVNSDTCQEAYTPLKKKVTKDMICAGEKEGGKDACAGDSGGPMVTKDAERDQWYLVGVVSWGEDCGKKDRYGVYSYIYPNKDWIQRITGVRN

System: coronal proteins on NPs
Design: species or system mouse
Conditions: for V5 Sera_Nanoparticles Quantitative Value (Normalized Total Spectra): 20:1 NP:sera, centrifuged and washed; for V5 Sera Alone (Control) Quantitative Value (Normalized Total Spectra): IAV day 5 (V5) mouse sera alone

Molecule	V5 Sera_Nanoparticles Quantitative Value (Normalized Total Spectra) (HBPE-NPs incubated 1 h with IAV day 5 (V5) mouse sera)	V5 Sera Alone (Control) Quantitative Value (Normalized Total Spectra) (no NPs (sera-only control))	V5 Sera_Nanoparticles Quantitative Value (Normalized Total Spectra) (HBPE-NPs incubated with IAV day 5 (V5) mouse sera 1 h)	V5 Sera Alone (Control) Quantitative Value (Normalized Total Spectra) (no NPs, mass spectrometry protein identification)
B1	27.198	124.91		
B2			0	0.9252
